# Source: PubChem BioAssay AID504761 (Drosophila RNAi Screening Center, 2011)
# Screen: 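Genome-wide fly cell screen for genes dengue virus requires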 (primary screen)
# Cells: D.Mel-2 cells from Drosophila
# Knock-down reagent: long dsRNA against Drosophila genes
# Conditions: infection with dengue virus type 2; dose and infection time not stated
# Detection: 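Per well on two replicate plates, imaging gave the percent of cells positive for viral envelope protein, ranked by infection, and a nuclear count of cells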
# Direction: infection score: higher = more virus-infected cells; cell count: higher = more cells in the well
# Rule for the call: 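Low infection ranks in the two replicates (chance level up to 0.065) followed by a retest with a 1.5-fold or larger significant decrease, p below 0.05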
# Meaning of the calls: active = confirmed: knock-down lowers infection; inactive = not picked or not confirmed
# The deposit covers about 22,000 reagents; shown is a random part of those with a known target gene and a result. Over the whole deposit, 116 (0.52%) got an active call. 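Calls depend on retest data that are not deposited; infection was ranked per plate without normalising between plates; the unit of the infection score is not given.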 Raw values vary from plate to plate and are shown uncorrected. Entries without a mark were called inactive. A plus sign joins genes that one reagent is predicted to hit. Not stated in the record: the amount of reagent, the time to read-out.
gene,dsRNA,"infection score, replicate 1","infection score, replicate 2","cell count, replicate 1","cell count, replicate 2"
Naglu,DRSC02267,1.34,3.47,6430,5931
CG42380 + CG42379 + PIG-M + 1 more,DRSC03884,1.56,1.11,5454,5665
CG42380 + CG42379 + PIG-M + 1 more,DRSC04580,11.9,24.7,6529,6412
Obp99b,DRSC16264,,,306,381
Obp99b,DRSC27754,5.03,13.4,1432,6422
rdo,DRSC02452,20.2,13.6,6293,6421
rdo,DRSC25572,3.02,0.74,6301,6476
S,DRSC24973,1.12,1.08,6432,6307
CG33189,DRSC21427,5.93,0.91,6591,6920
CG33189,DRSC25923,1.08,7.58,6510,6294
MstProx + Mst84Da,DRSC12597,7.99,4.04,6487,6216
CG34459,DRSC06973,17.9,23.1,5111,6595
CG17124,DRSC02580,3.38,3.47,6413,6680
CG17124,DRSC29139,1.53,31.4,459,5138
Mtk,DRSC07475,2.34,20.4,1367,7091
Mtk,DRSC29753,2.09,3.06,6362,6342
CG5860,DRSC15896,,2.47,346,770
RpS19a,DRSC20281,4.65,3.65,1785,2001
CG32983,DRSC22367,2.86,13.5,6325,6758
PolD3,DRSC01961,9.05,28.5,6356,5174
PolD3,DRSC28401,0.59,8.89,512,1890
CG12684,DRSC17875,,,422,407
CG17807,DRSC04296,10.3,32.3,6457,2516
CG17807,DRSC26388,5.48,2.89,6096,6343
CG17906 + alien,DRSC24008,1.5,1.89,6006,5940
RpL14,DRSC11269,4.65,1.53,2820,2944
Arp1,DRSC14118,2.55,2.22,6151,5856
Arp1,DRSC26164,8.57,1.91,5785,5700
Neb-cGP,DRSC17991,1.21,18.8,495,2368
CG9132,DRSC20159,4.84,6.16,6322,6006

No new results follow: an excerpt of the list.
gene,dsRNA,"infection score, replicate 1","infection score, replicate 2","cell count, replicate 1","cell count, replicate 2"
CG32983,DRSC22367,2.86,13.5,6325,6758
PolD3,DRSC01961,9.05,28.5,6356,5174
PolD3,DRSC28401,0.59,8.89,512,1890
CG12684,DRSC17875,,,422,407
CG17807,DRSC04296,10.3,32.3,6457,2516
CG17807,DRSC26388,5.48,2.89,6096,6343

The listing continues:
gene,dsRNA,"infection score, replicate 1","infection score, replicate 2","cell count, replicate 1","cell count, replicate 2"
or,DRSC04329,0.49,19.9,406,4647
or,DRSC29241,9.22,12.1,4383,5295
CG17224,DRSC00489,1.79,6.46,6481,6530
CG1632,DRSC17558,0.72,0.06,6713,6459
CG1632,DRSC18110,5.75,12.6,6396,6766
CG15130,DRSC02430,2.02,,6969,642
CG15549,DRSC15087,2.12,3.57,6133,1149
ZnT33D,DRSC02591,0.86 (active),0.56,6495,6574
CG8329,DRSC10978,11,2.73,4719,1027
CG8329,DRSC26746,10.2,6.83,6126,6029
cpb,DRSC00809,1.95,1.57,5280,5543
cpb,DRSC29870,13.2,24.9,1219,5705
elav,DRSC18772,18.5,16.2,6103,6503
vex,DRSC19481,1.04,1.34,6707,6577
vex,DRSC19651,1.39,2.47,6423,6799
vex,DRSC21843,8.63,0.41,5875,6601
vex,DRSC25475,3.32,8.98,6050,5636
ArgRS,DRSC20138,0.37,1.97,3472,3601
CG5162,DRSC19935,4.26,9.04,6266,5987
Mvd,DRSC20096,2.39,1.49,6911,7380
PCID2,DRSC10822,12.3,0.41,5604,241
PCID2,DRSC29290,15.1,4.61,5454,802
CG6565,DRSC02970,13.7,6.55,6594,6746
CG15107,DRSC23406,1.08,2.49,6406,6022
beta-PheRS,DRSC15859,2.59,4.65,6226,5951
beta-PheRS,DRSC26218,15.1,17.7,4734,4508
shrb,DRSC07061,3.53,6.31,4198,4106
CG11626,DRSC14336,7.64,2.32,6123,6889
